Laboratory results: patent US20170028016A1, “METHODS OF TREATMENT OF C. DIFFICILE SPORES WITH RAMOPLANIN” (Nanotherapeutics, Inc., priority 2014, published 2017)

System: Streptococcus salivarius
Test: Ramoplanin bioassay: zone of inhibition on S. salivarius lawns, unbound ramoplanin in supernatants of exposed spores

## ramoplanin
D0 to D28 after 30 min exposure
  bioassay zone of inhibition over time: decline in the bioassay's zone of inhibition over time
Spores exposed to 300 and 600 μg/mL for 30 min, D1-D28
  stability of unbound ramoplanin concentrations recovered from spores: stable
